A mixed list of measured activities; the numbers were collected in NIAID ChemDB.

Shared fields: growth or infection tests; agent: Mycobacterium tuberculosis

Blank or dashed fields: not listed here. ECn: concentration that inhibits the pathogen or its effect by n%. Rows are shuffled and stem from different studies. A number after MIC or MFC names an inhibition level or a share of isolates. Fold resistance: result on the changed form divided by that on wild type. MIC bound comes from a single tested concentration. Percent inhibition refers to the dose given; in toxicity tests it is the harm to the cells.

SMILES,cells,strain,read by,read-out,dose,changes,value
C[C@H](NCCNCc1ccc(C(F)(F)F)cc1)[C@H](O)c1ccc(O)c(O)c1,,,,MIC,,,25 µM
N[C@@H]1CONC1=O,,H37Rv,resazurin / fluorescence,EC90,,,28.01 µM
Cc1ccc(C)[nH]1,,H37Rv,,MIC,,,<12.5 µg/mL
FC(F)(F)c1ccc2c(c1)N(CCCN1CCN(C3CC3)CC1)c1ccccc1S2,,H37Rv,BACTEC,inhibition,12.5 µg/mL,,93%
CC(=O)Nc1ccc(OCC(=O)NN2C(=O)CSC2c2ccco2)cc1,,H37Rv,,EC50,,,>12.5 µg/mL
CCc1nc2ccc(C)cc2n1CCCCNc1ccccc1,,H37Rv,turbidity / fluorescence,fold resistance,,QcrB M342T,41
CC(=O)Nc1ccc(OCC(=O)NN2C(=O)C(C)SC2/C=C/c2ccccc2)cc1,,H37Rv,,EC50,,,>12.5 µg/mL
CN1CC2CCC(CC1=O)N2C,,H37Rv,BACTEC,inhibition,12.5 µg/mL,,-1%
C=CCNC(=S)N=Nc1c(O)[nH]c2ccc(OC(F)(F)F)cc12,,H37Rv,broth dilution / resazurin,EC90,,,>100 µg/mL
CCC(C)OS(=O)(=O)O,,H37Rv,,MIC,,,>100 µg/mL
C[n+]1ccc(Nc2ccc(NC(=O)c3ccc(Nc4cc[n+](C)c5ccc([N+](=O)[O-])cc45)cc3[N+](=O)[O-])cc2)cc1,,H37Rv,resazurin,MIC,,,0.78 µg/mL
CC(=O)Nc1ccc(I)cc1I,,H37Rv,,MIC,,,>100 µg/mL
CCc1nc2ccccc2n1CCCCOc1ccc(Cl)cc1C,,H37Rv,turbidity / fluorescence,fold resistance,,Rv1339 V90M,0.6
CC(=O)OC/C=C(\C)CCC[C@H](C)CCC[C@H](C)CCCC(C)C,,H37Rv,,MIC,,,16 µg/mL
CCc1nc2ccccc2n1CCCCSc1nnnn1C,,H37Rv,turbidity / fluorescence,MIC99,,,>20 µM
CCN(CCNC(C)=O)c1ccc(N)cc1.Cl,,H37Rv,,MIC,,,>100 µg/mL
CCOC(=O)c1ccc2c(c1)nc(-c1ccccc1)n2CCN1CCCOC1,,H37Rv,resazurin / fluorescence,EC50,,,>100 µM
c1ccc(CN(CCCOc2ccccc2)Cc2ccccc2)cc1,,H37Rv,,MIC,,,>100 µg/mL
Cc1[nH]n(CCO)c(=O)c1N=Nc1ccc(-c2n[nH]c(=S)o2)cc1,,H37Rv,,inhibition,12.5 µg/mL,,0%
COc1ccc(OC)c(CCNCCNC23CC4CC(CC(C4)C2)C3)c1,,,,MIC,,,25 µM
C[C@]1(COc2ccc(N3CCN(C/C=C/c4ccc(Oc5ccccc5)cc4)CC3)cc2)Cn2cc([N+](=O)[O-])nc2O1,,H37Rv,,MIC,,,0.012 µg/mL
CCCCC(CC)CN1CN(CC(CC)CCCC)CC(C)(NCCNCCC)C1,,,,MIC,,,6.25 µM
CCOC(=O)c1ccc2nc(-c3ccc(Br)cc3)[nH]c2c1,,H37Rv,resazurin / fluorescence,MIC,,,>100 µM
NS(=O)(=O)c1c(O)c2ccccc2oc1=O,,H37Rv,BACTEC,MIC bound,,,>12.5 µg/mL
COC/C=C(\C)CCC[C@H](C)CCC[C@H](C)CCCC(C)C,,H37Rv,,MIC,,,16 µg/mL
CCC1Cc2ccccc2/C1=N\NC(N)=O,,H37Rv,,MIC,,,>100 µg/mL
CC(=O)n1nc(-c2ccc(N=Nc3c(C)[nH]n(-c4ccccc4)c3=O)cc2)n(-c2ccccc2)c1=S,,H37Rv,,inhibition,12.5 µg/mL,,51%
CC1(C)[C@H]2CC[C@@H](CNCCNC(c3ccccc3)c3ccccc3)[C@@H]1C2,,,,MIC,,,25 µM
CC(C)(C)c1ccc(-c2noc(CN3CCN(c4ccc(OC[C@@]5(C)Cn6cc([N+](=O)[O-])nc6O5)cc4)CC3)n2)cc1,,H37Rv,,MIC,,,0.024 µg/mL
Cc1ccc(-c2ccc(Cl)cc2)n1Cc1ccccc1,,H37Rv,,EC50,,,<12.5 µg/mL
BrC(Br)(Br)c1ccc2ccccc2n1,,H37Rv,,MIC,,,>100 µg/mL
Cc1ccc(S(=O)(=O)Oc2ccc3sc4c(CO)ccc(NCCN(C)C)c4c(=O)c3c2)cc1,,H37Rv,BACTEC,MIC bound,,,≤12.5 µg/mL
C=CCn1c(-c2ccc(N=Nc3c(C)[nH]n(-c4ccccc4)c3=O)cc2)n[nH]c1=S,,H37Rv,,MIC,,,>12.5 µg/mL
OC[C@@H](O)[C@@H](O)[C@H](O)c1nn(-c2ccccc2)c2nc3ccccc3nc12,,H37Rv,,inhibition,6.25 µg/mL,,-9%
CCCCC(CC)CN1CN(CC(CC)CCCC)CC(C)(NCCNCCc2ccc(OC)cc2)C1,,,,MIC,,,12.5 µM
CC(=O)Nc1ccc(OCC(=O)NN2C(=O)C(C)SC2c2ccc(Cl)cc2)cc1,,H37Rv,,EC50,,,>12.5 µg/mL
Cc1ccc2c(c1)c(N=NC(=S)NC1CCCCC1)c(O)n2C,,H37Rv,broth dilution / resazurin,EC50,,,>100 µg/mL
CCOC(=O)c1ccc2c(c1)nc(-c1ccc(Cl)cc1)n2CCN1CCCOC1,,H37Rv,resazurin / fluorescence,MIC,,,100 µM
O=c1ccc2nc3ccccc3sc-2c1,VERO,H37Rv,BACTEC,MIC,,,1.56 µg/mL
Cc1c(CN2CCN(C)CC2)cc(-c2ccc(Cl)cc2)n1Cc1ccccc1,,103471,,MIC,,,4 µg/mL
CCc1nc2ccccc2n1CCCCSc1nccs1,,H37Rv,turbidity / fluorescence,MIC99,,,>20 µM
Cc1ncsc1CCO,,H37Rv,,MIC,,,>100 µg/mL
C=C1C(=O)CCC1C(=O)O,,H37Rv,BACTEC,inhibition,12.5 µg/mL,,7%
CCOC(=O)c1ccc(N2C(=O)c3cccc4cccc(c34)C2=O)cc1,,H37Rv,,MIC,,,>100 µg/mL
CCCCN(C)CCNc1cc(C)nc(Nc2nc3ccc(Cl)cc3[nH]2)n1,VERO,H37Rv,resazurin,MIC,,,6.25 µg/mL
CCOC(=O)c1ccc2c(c1)nc(-c1ccccc1)n2CCN1CCCC1=O,,H37Rv,resazurin / fluorescence,EC50,,,48.97 µM
NC(=O)c1cnccn1,,Isolate K10552,,MIC,,,>100 µg/mL
CC(CNCCNCCC1=CCCCC1)c1ccccc1,,,,MIC,,,50 µM
CC(=O)OCCCn1nc(COC(N)=O)c2c1CC(C)CC2=O,,H37Rv,resazurin,inhibition,6.25 µg/mL,,-55%
NCCNCCO,,H37Rv,,MIC,,,>100 µg/mL
CCNC(=S)N=Nc1c(O)n(CN2CCOCC2)c2ccc(OC(F)(F)F)cc12,,H37Rv,broth dilution / resazurin,EC90,,,>100 µg/mL
Cc1cc(O)c(C=O)c(O)c1,,H37Rv,,MIC,,,>100 µg/mL
C=C(C)[C@@H]1CC[C@]2(C)CC[C@]3(C)[C@H](CC[C@@H]4[C@@]5(C)CCC(=O)C(C)(C)[C@@H]5CC[C@]43C)[C@@H]12,,H37Rv,,MIC,,,>128 µM
CC(=O)O[C@H]1C(=O)[C@]2(C)[C@@H](OC(C)=O)C[C@H]3OC[C@@]3(OC(C)=O)[C@H]2[C@H](OC(=O)c2ccccc2)[C@]2(O)C[C@H](OC(=O)[C@H](OC(C)=O)[C@@H](NC(=O)c3ccccc3)c3ccccc3)C(C)=C1C2(C)C,,TAC-R,,MIC,,,3.1 µg/mL
COc1cc(C2SC(C)C(=O)N2NC(=O)COc2ccc(NC(C)=O)cc2)ccc1O,,H37Rv,,EC50,,,>12.5 µg/mL
Cn1nc(-c2ccc(Cl)c(Cl)c2)nc2c(=O)n(C)c(=O)nc1-2,,H37Rv,BACTEC,inhibition,12.5 µg/mL,,0%
COc1ccc(CCNCCNC(C)CC(C)C)cc1OC,,,,MIC,,,50 µM
C=CCn1c(-c2ccc(N=N/C(C(=O)OCC)=C(/C)O)cc2)n[nH]c1=S,,H37Rv,,EC50,,,>12.5 µg/mL
COc1cc(CNCCNCc2ccccc2F)cc(OC)c1OC,,,,MIC,,,50 µM
NC1[C@H]2CN(c3nc4c(cc3F)c(=O)c(C(=O)O)cn4-c3ccc(F)cc3F)C[C@@H]12,,45 strains (drug-susceptible),,MIC90,,,>4 µg/mL
CCc1nc2ccc(C)cc2n1CCCCNc1ccc(C)cc1,,H37Rv,turbidity / fluorescence,MIC90,,Rv1339 V90M,0.74 µM
O=C(/N=N/C(=O)N1CCOCC1)N1CCOCC1,,H37Rv,resazurin,inhibition,6.25 µg/mL,,27%
C=CC(C)NCc1cc(Nc2ccnc3cc(Cl)ccc23)ccc1O.Cl,,H37Rv,,MIC,,,50 µg/mL
CSCCC(NOC(=O)Cc1ccccc1)P(=O)(O)c1ccccc1,,H37Rv,BACTEC,MIC bound,,,>12.5 µg/mL
CC(=O)Nc1ccc(OCC(=O)NN2C(=O)C(C)SC2c2ccccc2O)cc1,,H37Rv,,inhibition,12.5 µg/mL,,0%
COc1ccc(CSC(=S)Nc2ccc(Cl)c(C(F)(F)F)c2)cc1,,H37Rv,resazurin,MIC bound,,,>6.25 µg/mL
Cl.ClCCCC1CCCCN1,,H37Rv,,MIC,,,100 µg/mL
O=C(O[C@H]1CCN2C[C@H]3C[C@H](CN4C(=O)CCC[C@H]34)[C@@H]2C1)c1ccc(O)cc1,,H37Rv,BACTEC,MIC,,,≥12.5 µg/mL
O=C(CBr)Nc1ccc(C(=O)Nc2cc(=O)n(-c3ccccc3)[nH]2)cc1,,H37Rv,,MIC,,,>100 µg/mL
NNC(=O)C(CO)c1ccccc1,,H37Rv,BACTEC,MIC,,,≥12.5 µg/mL
CN(c1ccc(Cl)cc1)C1CCN(C2CCN(c3ccc(OC[C@@]4(C)Cn5cc([N+](=O)[O-])nc5O4)cc3)CC2)CC1,,H37Rv,,MIC,,,0.024 µg/mL
CNC(=S)N=Nc1c(O)n(C)c2ccc(OC(F)(F)F)cc12,,H37Rv,broth dilution / resazurin,EC90,,,>100 µg/mL
CC(=O)Nc1ccc(Br)cc1C(C)=O,,H37Rv,,MIC,,,>100 µg/mL
Cn1c(O)c(N=NC(=S)Nc2ccccc2)c2cc(OC(F)(F)F)ccc21,,H37Rv,broth dilution / resazurin,EC90,,,>100 µg/mL
CC(C)=CCC/C(C)=C\CO,,H37Rv,,MIC,,,128 µg/mL
OCCO,,H37Rv,,MIC,,,>100 µg/mL
CCOC(=O)c1ccc2c(c1)nc(-c1ccc(OC(F)(F)F)cc1)n2CCN1CCCC1=O,,H37Rv,resazurin / fluorescence,EC90,,,>100 µM
CC(C)/C=C/C[C@H]1C(=O)O[C@H]2C[C@]3(C)C4=CC[C@H]5C(C)(C)C(=O)CC[C@]5(C)C4C[C@@H](O)[C@@]3(C)[C@@H]21,,H37Rv,,MIC,,,16 µg/mL
CCOC(=O)c1ccc(N)c(N)c1,,H37Rv,,MIC,,,100 µg/mL
CCCCCCn1c(C)ccc1-c1ccc(Cl)cc1,,H37Rv,,MIC,,,<12.5 µg/mL
CC1COc2c(N3CCN(C)CC3)c(F)cc3c(=O)c(C(=O)O)cn1c23,,45 strains (drug-susceptible),,MIC50,,,1 µg/mL
Nc1ccccc1C1CCCCC1,,H37Rv,,MIC,,,>100 µg/mL
COc1ccc2nc(Cl)c(CO)c(CO)c2c1,,H37Rv,BACTEC,inhibition,12.5 µg/mL,,33%
CC(=O)Nc1ccc(C)cc1,,H37Rv,,MIC,,,>100 µg/mL
Cc1cc(CN2CCN(C)CC2)c(C)n1C1CCCCC1,,103471,,MIC,,,8 µg/mL
C[C@]1(COc2ccc(N3CCN(C/C=C/c4cc(Cl)ccc4Cl)CC3)cc2)Cn2cc([N+](=O)[O-])nc2O1,,H37Rv,,MIC,,,0.024 µg/mL
Cc1ccc2[nH]c(O)c(N=NC(=S)Nc3ccc(Br)cc3)c2c1,,H37Rv,broth dilution / resazurin,EC90,,,>100 µg/mL
CCc1nc2ccc(C)cc2n1CCCCSc1ccc(OC)cc1,,H37Rv,turbidity / fluorescence,fold resistance,,Rv1339 V90M,1.1
Cc1ccc(-c2cc3cc4c(cc3[nH]2)Sc2ccccc2O4)cc1,,H37Rv,BACTEC,MIC bound,,,>12.5 µg/mL
O=C(O)/C=C(\CC(=O)O)C(=O)O,,H37Rv,,MIC,,,>100 µg/mL
CCc1nc(N)nc(N)c1-c1ccc(Cl)cc1,,H37Rv,resazurin / fluorescence,EC50,,,>100 µM
CCOc1ccccc1N=NC1C(=O)N(C(=O)CC(=O)Nc2ccccc2C)N=C1C,,H37Rv,BACTEC,inhibition,12.5 µg/mL,,0%
BrCCOc1ccccc1,,H37Rv,,MIC,,,>100 µg/mL
CCOC(=O)/C(N=Nc1ccc(-c2n[nH]c(=S)o2)cc1)=C(\C)O,,H37Rv,,inhibition,12.5 µg/mL,,13%